The test system of this data set is CpxR-P (phosphorylated CpxR). In words: EMSA. As to conditions: acetyl phosphate-phosphorylated CpxR, 5 mM Mg2+, 0.1 mM Mn2+, 10 mM Tris (pH not stated), 50 mM KCl, 5 mM MgCl2, 1 mM DTT, 0.1 mM MnCl2, 2.5% glycerol, 50 ng/uL poly[dI-dC], 40 ng probe, 30 min, room temperature, recombinant protein, residues 1-232, protein details: His (pET28a), label: biotin, probe letters rebuilt from the primers and the genome.

The source of these data is PMC6534853.

No signal at the amounts used counts as a negative. The exact form of at least one protein or probe is not confirmed.

With “CATGGGGTTGGCATTTATGAACTCCTTGTGAAATTATCAACTGCTGTTTTACGAACAACCCGTCGTTAATCCCCGACAGGTTAGAGTGTGATGCGGCTCACATCAGGAACCACACCCTTTTCTTTATTCGAGTTACAGGCACACGTAATTAGCACCTACCGAAAAACTCTTTTATGGTGTTTAAATATATTTTTAGTCAA (double strand) [hcp2B promoter fragment without CpxR site]”, the binding result was “no binding”. Take “AGCTTATGTAATCGTGTTCTGAAATTGACTAAAAATATATTTAAACACCATAAAAGAGTTTTTCGGTAGGTGCTAATTACGTGTGCCTGTAACTCGAATAAAGAAAAGGGTGTGGTTCCTGATGTGAGCCGCATCACACTCTAACCTGTCGGGGATTAACGACGGGTTGTTCGTAAAACAGCAGTTGATAATTTCACAAGGAGTTCATAAATGCCAACCCCATG (double strand) [hcp2B promoter fragment with CpxR site]”: for the setting “abolished by excess unlabeled N1”, the binding result was “binds”.
